Test results: patent US9683231B2, “RNAi-based method of drug screening and characterization” (Massachusetts Institute of Technology, priority 2010, dated 2017)
Read-outs that look alike come from different tables or passages of the source.

Test system: Eμ-Mycp19^Arf−/− lymphoma cells expressing shRNAs targeting p53, ATR, Chk1, Chk2, Smg-1, DNAPKcs, Bok and Bim
Experiment: Eight-shRNA signature, probabilistic nearest-neighbors prediction of drug mechanism (GFP competition assay)
Assay type: cell-based, mouse
[1] = cluster size with versus without the test compound

Row | Structure (SMILES) | Linkage Ratio [1] | Linkage Ratio
1 | COc1cc2c(cc1O)CC[C@@H]1[C@@H]2CC[C@]2(C)[C@@H](O)CC[C@@H]12 [2-Methoxyestradiol] | 1.08 | 
2 | C[C@@]12C(=O)OC(=O)[C@]1(C)[C@H]1CC[C@@H]2O1 [Cantharidin] | 1.27 | 
3 | N.N.O=C([O-])C1(C(=O)[O-])CCC1.[Pt+2] [Carboplatin] | 0.86 | 
4 | O=NN(CCCl)C(=O)NCCCl [Carmustine] | 0.95 | 
5 | COc1cccc2c1C(=O)c1c(O)c3c(c(O)c1C2=O)C[C@@](O)(C(C)=O)C[C@@H]3O[C@H]1C[C@H](N)[C@H](O)[C@H](C)O1 [Daunorubicin] | 0.83 | 
6 | CN1C(=O)[C@]23CC4=CC=C[C@H](O)[C@H]4N2C(=O)[C@@]1(CO)SS3 [Gliotoxin] | 1.11 | 
7 | N[C@@H](Cc1ccc(N(CCCl)CCCl)cc1)C(=O)O [Melphalan] | 0.91 | 
8 | COc1ccc2c(c1OC)C(=O)O[C@@H]2[C@H]1c2c(cc3c(c2OC)OCO3)CCN1C [Noscapine] | 0.83 | 
9 | S=P(N1CC1)(N1CC1)N1CC1 [ThioTEPA] |  | 0.92
10 | CC[C@]1(O)C[C@@H]2CN(CCc3c([nH]c4ccccc34)[C@@](C(=O)OC)(c3cc4c(cc3OC)N(C)[C@H]3[C@@](O)(C(=O)OC)[C@H](OC(C)=O)[C@]5(CC)C=CCN6CC[C@]43[C@@H]65)C2)C1 [Vinblastine] | 0.95 | 
